Assay results published in publication PMC9270183 (The Journal of Experimental Medicine, 2022).

Molecular target: SARS-CoV-2 Wuhan-Hu-1 RBD (SARS-CoV-2 Wuhan-Hu-1)
Assay: BLI
Conditions: both partners purified

B1: V008 (antibody, V domains shown)
VH: QVQLVQSGAEVKKPGASVKVSCKASGYTFTGYYMHWVRQAPGQGLEWMGWINPNSGGTNYAQKFQGRVTMTRDTSISTAYMELSRLRSDDTAVYYCASGSYYYDSSGYYYNDAFDIWGQGTMVTVSS
VL: [about 100 residues cut from this listing]
notes: IgG; donor BRA13; source: recombinant monoclonal IgG, produced and purified as previously described
**Q.** For B1, which Kd is on record?
**A.** 3.54 nM
